The list shows a part of the results, in another mix than the full data. Inconclusive results are not listed. Activity calls are given as the source filed them. The call rests on the fitted dose curve; tested in HEK293 cells.
assay: qHTS for inhibitors of binding or entry into cells for Marburg Virus; conditions: Marburg virus pseudotyped entry inhibition, cell reporter; at 37.8 µM (top of the series) unless noted
On the % scale 0 is the no-effect control and ±100 the full control effect.

| SMILES | activity change, negative = inhibition |
| --- | --- |
| CC(C)C(=O)NC(Sc1ccccc1)C(Cl)(Cl)Cl (stereo unspecified) | inactive: 10.7% |
| O=P(Nc1nccs1)(c1ccccc1)c1ccccc1 | inactive: -3.85% |
| c1nnnn1CCn1cnnn1 | inactive: -12.4% [at 46.1 µM] |
| O=[As](O)(c1ccccc1)c1ccc(O)cc1 | inactive: 15% [at 46.1 µM] |
| O=[N+]([O-])c1ccc(OP2(=O)COCCO2)cc1 (stereo unspecified) | inactive: -11.6% [at 46.1 µM] |
| C(Cc1nn[nH]n1)Cc1nn[nH]n1 | inactive: -1.04% |
| Nc1ccc([As](=O)(O)c2ccc([N+](=O)[O-])cc2)cc1 | inactive: 2% [at 46.1 µM] |
| CN(C)C1(CNC(=O)c2ccc(Cl)c(S(N)(=O)=O)c2)CCCCC1 | inactive: -12.4% |
| CN(C)CCOC(=O)C(O)(c1ccccc1)C1CCCCC1 (stereo unspecified) | inactive: -4.89% |
| O=P(Nc1nc2ccccc2s1)(c1ccccc1)c1ccccc1 | inactive: -29.6% [at 46.1 µM] |
| O=C(OC1CN2CCC1CC2)c1ccccc1 (stereo unspecified) | inactive: 22.8% |
| CCC(=O)N1C2C3N(C(=O)CC)C1C1N(C(=O)CC)C(C(N1C(=O)CC)N3C(=O)CC)N2C(=O)CC | inactive: 1.18% |
| COC(=O)c1cc2c(s1)N=C(c1ccccc1)N(C)P2(=O)N1CCOCC1 (stereo unspecified) | inactive: -0.0344% |
| CN(C)C(=O)Oc1noc2ccccc12 | inactive: 1.66% [at 46.1 µM] |
| CCOC(=O)NC(Sc1ccccc1)C(Cl)(Cl)Cl (stereo unspecified) | inactive: 3.07% |
| Cc1ccc(NP(=O)(Oc2cccc(C)c2)Oc2cccc(C)c2)nc1 | inactive: -24.2% [at 14.2 µM] |
| CCNC(=S)/N=C(\N)N[N+](=O)[O-] | inactive: 15.2% [at 46.1 µM] |
| O=C(NC1CCS(=O)(=O)C1)NP(=S)(Oc1ccccc1)Oc1ccccc1 (stereo unspecified) | inactive: 18.1% [at 46.1 µM] |
| O=P1(N(CCCl)CCCl)OCCC2CCCCN21 (stereo unspecified) | inactive: -0.774% [at 46.1 µM] |
| COC(=O)C1(C)COP(=O)(NCc2ccccc2)OC1 (stereo unspecified) | inactive: 12.8% |
| CC(=O)Nc1ccc([As](=O)(O)O)c(O)c1 | inactive: 5.52% [at 46.1 µM] |

| SMILES | activity change, negative = inhibition |
| --- | --- |
| CC(C)(C)C(=O)NC(Sc1ccccc1)C(Cl)(Cl)Cl (stereo unspecified) | inactive: 0.418% [at 46.1 µM] |
| CCc1cc(O)c([N+](=O)[O-])c(C)c1[N+](=O)[O-] | inactive: 14.4% |
| Oc1ccccc1CNc1ccccn1 | inactive: 18.4% |
| O=C(NC(Sc1ccncn1)C(Cl)(Cl)Cl)c1ccccc1 (stereo unspecified) | inactive: -9.03% |
| Cc1c2non([O-])c-2c(C)[n+](=O)[n+]1[O-] | inactive: 1.7% |
| Nc1cc(N)c2nonc2c1[N+](=O)[O-] | inactive: 9.75% |
| Cc1ccc(N/C(=N/P(=O)(N2CCOCC2)N2CCOCC2)N2CCOCC2)cc1 | inactive: 0.0413% [at 46.1 µM] |
| NC(=O)c1cc([N+](=O)[O-])cc([N+](=O)[O-])c1N | inactive: 0.0723% |
| CN1CCCC(OC(=O)C(c2ccccc2)c2ccccc2)C1 (stereo unspecified) | inactive: 2.93% |
| CN(C)CCOC(=O)C(O)(c1ccccc1)C1CCCC1 (stereo unspecified) | inactive: 3.29% |
| Cc1ccc(OP(=O)(Nc2nccs2)Oc2ccc(C)cc2)cc1 | inactive: -7.81% |
| O=P(Nc1nc2ccc(Cl)cc2s1)(c1ccccc1)c1ccccc1 | inactive: 8.31% [at 14.2 µM] |
| CC(=O)Nc1ccc([As](=O)(O)O)cc1 | inactive: -2.5% [at 46.1 µM] |
| O=C(O)c1ccccc1[As](=O)(O)O | inactive: 9.95% [at 46.1 µM] |
| CCCC1OP(N)(=O)OCC1CC (stereo unspecified) | inactive: 0.555% [at 46.1 µM] |
| Cc1cc(SC(NC(=O)c2ccc(F)cc2)C(Cl)(Cl)Cl)ncn1 (stereo unspecified) | inactive: 4.3% |
| CCOP(=O)(Nc1ccccc1)OCC | inactive: 4.95% |
| Cc1ccc(NP(=O)(Oc2ccccc2F)Oc2ccccc2F)nc1 | inactive: 1.67% [at 46.1 µM] |
| O=[N+]([O-])c1ncn(CCn2ncnc2[N+](=O)[O-])n1 | inactive: 5.43% |
| COC(=O)C1(C)COP(=O)(Nc2ccccc2)OC1 (stereo unspecified) | inactive: 11.9% |
| O=P1(N(CCCl)CCCl)OCCCS1 (stereo unspecified) | inactive: -5.45% [at 46.1 µM] |

| SMILES | activity change, negative = inhibition |
| --- | --- |
| CCN(/C(=N/P(=O)(N1CCOCC1)N1CCOCC1)N1CCOCC1)c1ccc(OC)cc1 | inactive: -1.82% [at 46.1 µM] |
| Nc1ccc([As](=O)(O)c2ccc(N)cc2)cc1 | inactive: 19.8% [at 46.1 µM] |
| CC1CCN(C(=O)Oc2c(Cl)cc(Cl)c3cccnc23)CC1 | inactive: 0.411% |
| CC(C)=N/N=C(\N)N[N+](=O)[O-] | inactive: 7.59% [at 46.1 µM] |
| CN(C)C(=O)OCCc1n(C)cc[n+]1C | inactive: -4.28% |
| Cc1cccc(OCC(=O)O[C@@H]2CN3CCC2CC3)c1 | inactive: 1.19% |
| COc1ccc(C2=NCC(CBr)S2)cc1 (stereo unspecified) | inactive: -21.1% [at 46.1 µM] |
| Cc1ccc(NP(=O)(Oc2ccccc2)Oc2ccccc2)nc1 | inactive: 0.189% [at 46.1 µM] |
| O=[N+]([O-])c1cc([N+](=O)[O-])c(CCNc2ccccc2)c([N+](=O)[O-])c1 | inactive: 2.7% [at 46.1 µM] |
| O=[N+]([O-])c1cccc2n[nH]nc12 | inactive: 11.4% |
| CC(=O)N1C2C3N(C(C)=O)C1C1N(C(C)=O)C(C(N1C(C)=O)N3C(C)=O)N2C(C)=O | inactive: 6.96% |
| CCOC(=O)c1ccc(NC(=O)C(C)(CCl)SC)cc1 (stereo unspecified) | inactive: 11.9% [at 46.1 µM] |
| CCC(C)N(CC(C)C)C(=S)SC(NC(C)=O)C(Cl)(Cl)Cl (stereo unspecified) | inactive: -28.7% |
| COP1(=S)c2c(C)nn(CCC#N)c2N=C(c2ccc(F)cc2)N1C (stereo unspecified) | inactive: -2.17% |
| O=C(COc1ccccc1)OC1CN2CCC1CC2 (stereo unspecified) | inactive: -1.69% |
| CCOC(=O)Nc1cccc([As](=O)(O)O)c1 | inactive: 7.99% [at 46.1 µM] |
| Cc1cc(SC(NC=O)C(Cl)(Cl)Cl)ncn1 (stereo unspecified) | inactive: -5.6% [at 46.1 µM] |
| CC1CCNP(=O)(N(CCCl)CCCl)O1 (stereo unspecified) | inactive: 5.69% |
| CCCCOc1ccc(C(=O)NCC2(N3CCCCC3)CCCCC2)cc1OC | inactive: -22.6% [at 46.1 µM] |

— PubChem BioAssay AID540276 (National Center for Advancing Translational Sciences (NCATS), 2011)
